Compound potency records, mixed from different reports. Data source: NIAID ChemDB in PubChem.

All rows: target-level tests

a–b is a range or a potency band.

compound	read by	changes	protein	tested at	agent	endpoint	strain or isolate	result
O=C1c2c(O)c(=O)c(NS(=O)(=O)c3ccccc3)cn2CCN1Cc1ccc(F)c(Cl)c1	ELISA	-	Integrase	-	HIV-1	IC50	-	0.01–0.1 µM
Cc1nnc2ccc(N3CCc4ccccc4C3)nn12	RT activity / fluorescence	-	Reverse transcriptase	-	HIV-1	IC90	IIIB	58.3 µM
Nc1ccn([C@H]2CC[C@@H](COP(=O)(O)OP(=O)(O)OP(=O)(O)O)O2)c(=O)n1	-	-	Reverse transcriptase	-	HIV	Ki	-	5.1 µM
CC(C)(CCNC(=O)c1ccc(F)cc1)CN(C[C@@H](O)[C@H](Cc1ccccc1)NC(=O)O[C@H]1CO[C@H]2OCC[C@H]21)S(=O)(=O)c1ccc2c(c1)OCO2	fluorescence	-	Protease	-	HIV-1	Ki	-	<0.001 µM
O=c1c(-c2ccccn2)cn2ccn(Cc3cccc(Cl)c3)c(=O)c2c1O	ELISA	-	Integrase	-	HIV-1	IC50	-	<0.01 µM
CCCS(=O)(=O)NCCCC(C)(C)CN(C[C@@H](O)[C@H](Cc1ccccc1)NC(=O)O[C@H]1CO[C@H]2OCC[C@H]21)S(=O)(=O)c1ccc2c(c1)OCO2	fluorescence	-	Protease	-	HIV-1	Ki	-	<0.001 µM
c1ccc2c(c1)CN(c1nn3c(C4CC4)nnc3c3ccccc13)C2	RT activity / fluorescence	-	Reverse transcriptase	-	HIV-1	IC90	98US_MSC5016	>100 µM
O=C(O)c1cn(Cc2cccc(Cl)c2)c(=O)c2c(O)c(=O)ccn12	ELISA	-	Integrase	-	HIV-1	IC50	-	0.01–0.1 µM
CC(C)(C)NC(=O)[C@H]1N(C(=O)[C@@H](O)[C@H](Cc2ccccc2)NC(=O)[C@H](CSN)NC(=O)COc2cccc(-c3ccccc3)c2)CSC1(C)C	-	-	Protease	0.05 µM	HIV-1	inhibition	-	99.2%
CCOC(=O)NCCCCC(C)(C)CN(C[C@@H](O)[C@H](Cc1ccccc1)NC(=O)O[C@H]1CO[C@H]2OCC[C@H]21)S(=O)(=O)c1cccc(N)c1	fluorescence	-	Protease	-	HIV-1	Ki	-	<0.001 µM
Cc1cccc(OCC(=O)N[C@@H](CC(N)=O)C(=O)N[C@@H](Cc2ccccc2)[C@H](O)C(=O)N2CSC(C)(C)[C@H]2C(=O)NC(C)(C)C)c1C	-	-	Protease	-	HIV-1	IC50	-	<0.05 µM
Cc1ccc(C(F)(F)F)c(Cl)c1-n1nnnc1SCC(=O)Nc1ccc(C#CC(C)(C)O)cc1Cl	PicoGreen / fluorescence	RT-K103 Y181C	Reverse transcriptase	-	HIV-1	IC50	-	<1 µM
CC(=O)Nc1cc2c(cc1OC(F)(F)F)CCN(c1nn3c(C)nnc3c3ccccc13)C2	RT activity / fluorescence	-	Reverse transcriptase	-	HIV-1	IC90	IIIB	0.95 µM
Nc1ccn([C@@H]2CS[C@H](COP(=O)(O)OP(=O)(O)OP(=O)(O)O)O2)c(=O)n1	radiometric	RT-K65R K103N	Reverse transcriptase	-	HIV	Ki	-	1.184 µM
CC(C)(C)c1ccc(-n2nnnc2SCC(=O)Nc2ccc(-c3ccc(OCCN4CCCC4)cc3)cc2Cl)c(Cl)c1	PicoGreen / fluorescence	RT-K103 Y181C	Reverse transcriptase	-	HIV-1	IC50	-	<1 µM
CC(C)(C)NC(=O)[C@@H]1Cc2ccccc2CN1C(=O)[C@@H](O)[C@H](Cc1ccccc1)NC(=O)[C@H](CC(N)=O)NC(=O)OCc1ccccc1	-	-	Protease	0.05 µM	HIV-1	inhibition	-	10.8%
Cc1cc(Cl)c(-n2nnnc2SCC(=O)Nc2ccc(C#CC(C)(C)C(=O)O)cc2Cl)cc1C(F)(F)F	PicoGreen / fluorescence	RT-K103 Y181C	Reverse transcriptase	-	HIV-1	IC50	-	<1 µM
CC(C)(CCNC(=O)N1CCCC1)CN(C[C@@H](O)[C@H](Cc1ccccc1)NC(=O)O[C@H]1CO[C@H]2OCC[C@H]21)S(=O)(=O)c1ccc2c(c1)OCO2	fluorescence	-	Protease	-	HIV-1	Ki	-	<0.001 µM
CC(C)(C#Cc1ccc(NC(=O)CSc2nnnn2-c2ccc(C(C)(C)C)cc2Cl)c(Cl)c1)OCC(=O)NC1(C(=O)O)CC1	PicoGreen / fluorescence	-	Reverse transcriptase	-	HIV-1	IC50	WT	<1 µM
c1coc(-c2nnc3c4ccccc4c(N4CCc5ccccc5C4)nn23)c1	RT activity / fluorescence	-	Reverse transcriptase	-	HIV-1	IC50	98US_MSC5016	0.63 µM
CC(C)(C#Cc1ccc(NC(=O)CSc2nnnn2-c2ccc(C3CC3)cc2Cl)c(Cl)c1)NC(=O)Cn1cncn1	PicoGreen / fluorescence	RT-K103 Y181C	Reverse transcriptase	-	HIV-1	IC50	-	<1 µM
CC(C)OC(=O)NCCCCC(C)(C)CN(C[C@@H](O)[C@H](Cc1ccccc1)NC(=O)O[C@@H]1CO[C@@H]2OCC[C@@H]21)S(=O)(=O)c1ccc2c(c1)OCO2	fluorescence	-	Protease	-	HIV-1	Ki	-	<0.001 µM
Cc1ccc(-c2c(SCC(=O)Nc3ccc(-c4ccc(CC(=O)O)cc4)cc3Cl)cnn2C)c(Cl)c1	PicoGreen / fluorescence	-	Reverse transcriptase	-	HIV-1	IC50	WT	<1 µM
CC(C)c1nnc2c3ccccc3c(N3CCc4ccc(NS(C)(=O)=O)cc4C3)nn12	RT activity / fluorescence	-	Reverse transcriptase	-	HIV-1	IC90	98US_MSC5016	2.77 µM
CC(C)(C)c1ccc(-n2nnnc2SCC(=O)Nc2ccc(C(=O)Nc3ccccc3O)cc2Cl)c(Cl)c1	PicoGreen / fluorescence	RT-K103 Y181C	Reverse transcriptase	-	HIV-1	IC50	-	<1 µM
CC(C)(CCCNS(C)(=O)=O)CN(C[C@@H](O)[C@H](Cc1ccccc1)NC(=O)O[C@H]1CO[C@H]2OCC[C@H]21)S(=O)(=O)c1cccc2c1OCO2	fluorescence	-	Protease	-	HIV-1	Ki	-	<0.001 µM
CC(C)(C)NC(=O)[C@@H]1CCCN1C(=O)[C@@H](O)[C@H](Cc1ccccc1)NC(=O)[C@H](CC(N)=O)NC(=O)OCc1cccc2ccccc12	-	-	Protease	-	HIV-1	IC50	-	<5 µM
CC(C)(CCCNC(=O)C1CC1)CN(C[C@@H](O)[C@H](Cc1ccccc1)NC(=O)O[C@H]1CO[C@H]2OCC[C@H]21)S(=O)(=O)c1ccc2c(c1)OCO2	fluorescence	-	Protease	-	HIV-1	Ki	-	<0.001 µM
CC(C)(C)c1ccc(-n2nnnc2SCC(=O)Nc2ccc(NC(=O)Cn3cnnn3)cc2Cl)c(Cl)c1	PicoGreen / fluorescence	RT-K103 Y181C	Reverse transcriptase	-	HIV-1	IC50	-	<1 µM
CC(C)(CCCCOC(N)=O)CN(C[C@@H](O)[C@H](Cc1ccccc1)NC(=O)O[C@H]1CO[C@H]2OCC[C@H]21)S(=O)(=O)c1ccc2c(c1)OCO2	fluorescence	-	Protease	-	HIV-1	Ki	-	<0.001 µM
CC(C)(C#Cc1ccc(NC(=O)CSc2nnnn2-c2ccc(C3CC3)cc2Cl)c(Cl)c1)C(=O)N1CCC(C(=O)O)CC1	PicoGreen / fluorescence	-	Reverse transcriptase	-	HIV-1	IC50	WT	<1 µM
CNC(=S)NCCCCC(C)(C)CN(C[C@@H](O)[C@H](Cc1ccccc1)NC(=O)O[C@H]1CO[C@H]2OCC[C@H]21)S(=O)(=O)c1ccc2c(c1)OCO2	fluorescence	-	Protease	-	HIV-1	Ki	-	<0.001 µM
CC(C)c1cn2ccn(Cc3cccc(Cl)c3)c(=O)c2c(O)c1=O	ELISA	-	Integrase	-	HIV-1	IC50	-	0.01–0.1 µM
CCCCS(=O)(=O)NCCC(C)(C)CN(C[C@@H](O)[C@H](Cc1ccccc1)NC(=O)O[C@H]1CO[C@H]2OCC[C@H]21)S(=O)(=O)c1ccc2c(c1)OCO2	fluorescence	-	Protease	-	HIV-1	Ki	-	<0.001 µM
CN(C)CCCC(=O)NC(C)(C)C#Cc1ccc(NC(=O)CSc2nnnn2-c2cc(C(F)(F)F)ccc2Cl)c(Cl)c1	PicoGreen / fluorescence	RT-K103 Y181C	Reverse transcriptase	-	HIV-1	IC50	-	<1 µM
COc1cccc(-c2nnc3c4ccccc4c(N4CCc5ccccc5C4)nn23)c1	RT activity / fluorescence	-	Reverse transcriptase	-	HIV-1	IC90	KER2008	98.6 µM
CC(C)(CCCCNS(=O)(=O)c1ccccc1)CN(C[C@@H](O)[C@H](Cc1ccccc1)NC(=O)O[C@H]1CO[C@H]2OCC[C@H]21)S(=O)(=O)c1ccc2c(c1)OCO2	fluorescence	-	Protease	-	HIV-1	Ki	-	<0.001 µM
Cc1cc(C(F)(F)F)cc(-n2nnnc2SCC(=O)Nc2ccc(C#CC(C)(C)C(=O)O)cc2Cl)c1Cl	PicoGreen / fluorescence	RT-K103 Y181C	Reverse transcriptase	-	HIV-1	IC50	-	<1 µM
CCCC[C@@H](CN[C@@H](CCC(N)=O)C(=O)N[C@@H](CCCN=C(N)N)C(N)=O)NC(=O)[C@H](CCCC)NC(=O)C(NC(=O)C(NC(C)=O)[C@@H](C)O)[C@@H](C)CC	HPLC	PR-R8Q	Protease	-	HIV	IC50	-	<2.17 µM
CC(C)(C)c1ccc(-n2nnnc2SCC(=O)Nc2ccc(OCC(=O)N3CCC(C(=O)O)CC3)cc2Cl)c(Cl)c1	PicoGreen / fluorescence	-	Reverse transcriptase	-	HIV-1	IC50	WT	<1 µM
CCC(C)CNC(=O)OCCC(C)(C)CN(C[C@@H](O)[C@H](Cc1ccccc1)NC(=O)O[C@H]1CO[C@H]2OCC[C@H]21)S(=O)(=O)c1ccc2c(c1)OCO2	fluorescence	-	Protease	-	HIV-1	Ki	-	<0.001 µM
O=[N+]([O-])c1ccc2c(c1)CN(c1nn3c(C(F)F)nnc3c3ccccc13)CC2	RT activity / fluorescence	-	Reverse transcriptase	-	HIV-1	IC90	IIIB	15.4 µM
CC(C)(C#Cc1ccc(NC(=O)CSc2nnnn2-c2ccc(C(C)(C)C)cc2Cl)c(Cl)c1)OCC(=O)NCCC(=O)O	PicoGreen / fluorescence	RT-K103 Y181C	Reverse transcriptase	-	HIV-1	IC50	-	<1 µM
Nc1nc2c(ncn2[C@H]2CC[C@@H](COP(=O)(O)OP(=O)(O)OP(=O)(O)O)O2)c(=O)[nH]1	-	RT-L74V T215Y	Reverse transcriptase	-	HIV	Ki	-	0.2 µM
Cc1ccc(-n2nnnc2SCC(=O)Nc2ccc(-c3ccc(C(=O)O)cc3)cc2Cl)c(Cl)c1	PicoGreen / fluorescence	RT-K103 Y181C	Reverse transcriptase	-	HIV-1	IC50	-	<1 µM
CC(C)(CCCNC(=O)c1cccs1)CN(C[C@@H](O)[C@H](Cc1ccccc1)NC(=O)O[C@H]1CO[C@H]2OCC[C@H]21)S(=O)(=O)c1ccc2c(c1)OCO2	fluorescence	-	Protease	-	HIV-1	Ki	-	<0.001 µM
CC(C)(C#Cc1ccc(NC(=O)CSc2nnnn2-c2ccc(C3CC3)cc2Cl)c(Cl)c1)NC(=O)c1csnn1	PicoGreen / fluorescence	RT-K103 Y181C	Reverse transcriptase	-	HIV-1	IC50	-	<1 µM
CC(C)(CCCCCNC(=O)c1cccs1)CN(C[C@@H](O)[C@H](Cc1ccccc1)NC(=O)O[C@H]1CO[C@H]2OCC[C@H]21)S(=O)(=O)c1ccc2c(c1)OCO2	fluorescence	-	Protease	-	HIV-1	Ki	-	<0.001 µM
O=C(CSc1nnnn1-c1ccc(C2CC2)cc1Cl)Nc1ccc(S(=O)(=O)Nc2ccncc2)cc1Cl	PicoGreen / fluorescence	RT-K103 Y181C	Reverse transcriptase	-	HIV-1	IC50	-	<1 µM
CC(C)(CCNC(=O)c1cc(F)cc(F)c1)CN(C[C@@H](O)[C@H](Cc1ccccc1)NC(=O)O[C@H]1CO[C@H]2OCC[C@H]21)S(=O)(=O)c1ccc2c(c1)OCO2	fluorescence	-	Protease	-	HIV-1	Ki	-	<0.001 µM
CC(C)=CCN1Cc2cccc3[nH]c(=S)n(c23)C[C@@H]1C	nucleotide incorporation	RT-V60T	Reverse transcriptase	-	HIV	IC50	-	1.4 µM
CNc1cccc(S(=O)(=O)N(C[C@@H](O)[C@H](Cc2ccccc2)NC(=O)O[C@H]2CO[C@H]3OCC[C@H]32)CC(C)(C)CCC2(C)OCCO2)c1	fluorescence	-	Protease	-	HIV-1	Ki	-	<0.001 µM
CC(C)(C#Cc1ccc(NC(=O)CSc2nnc(C(F)(F)F)n2-c2ccc(C3CC3)cc2Cl)c(Cl)c1)C(=O)O	PicoGreen / fluorescence	-	Reverse transcriptase	-	HIV-1	IC50	WT	<1 µM
COC(=O)CCC(=O)NCCCC(C)(C)CN(C[C@@H](O)[C@H](Cc1ccccc1)NC(=O)O[C@H]1CO[C@H]2OCC[C@H]21)S(=O)(=O)c1ccc2c(c1)OCO2	fluorescence	-	Protease	-	HIV-1	Ki	-	<0.001 µM
CC(C)(C)NC(=O)[C@@H]1CSCN1C(=O)[C@@H](O)[C@H](Cc1ccccc1)NC(=O)[C@@H](NC(=O)COc1cccc2ccccc12)C(C)(C)S(C)(=O)=O	-	-	Protease	-	HIV-1	IC50	-	<0.05 µM
CC(C)C(=O)NCCC(C)(C)CN(C[C@@H](O)[C@H](Cc1ccccc1)NC(=O)O[C@H]1CO[C@H]2OCC[C@H]21)S(=O)(=O)c1ccc2c(c1)OCO2	fluorescence	-	Protease	-	HIV-1	Ki	-	<0.001 µM
CC(C)(C#Cc1ccc(NC(=O)CSc2nnnn2-c2cccc(C3CC3)c2Cl)c(Cl)c1)C(=O)O	PicoGreen / fluorescence	-	Reverse transcriptase	-	HIV-1	IC50	WT	<1 µM
COCC(=O)NCCCC(C)(C)CN(C[C@@H](O)[C@H](Cc1ccccc1)NC(=O)O[C@H]1CO[C@H]2OCC[C@H]21)S(=O)(=O)c1ccc2c(c1)OCO2	fluorescence	-	Protease	-	HIV-1	Ki	-	<0.001 µM
CC(C)(C#Cc1ccc(NC(=O)CSc2nnnn2-c2ccc(C(C)(C)C)cc2Cl)c(Cl)c1)OCC(=O)Nc1cccc(C(=O)O)c1	PicoGreen / fluorescence	RT-K103 Y181C	Reverse transcriptase	-	HIV-1	IC50	-	<1 µM
CCC(CC)NC(=O)[C@@H]1CCCN1C(=O)[C@@H](O)[C@H](Cc1ccccc1)NC(=O)[C@H](CC(N)=O)NC(=O)OCc1ccccc1	-	-	Protease	5 µM	HIV-1	inhibition	-	>90%
CC(C)(CCCNC(=O)CN)CN(C[C@@H](O)[C@H](Cc1ccccc1)NC(=O)O[C@H]1CO[C@H]2OCC[C@H]21)S(=O)(=O)c1ccc2c(c1)OCO2	fluorescence	-	Protease	-	HIV-1	Ki	-	<0.001 µM

ICn is the concentration giving n% inhibition. Blank or dashed fields: not listed here. Percent inhibition refers to the dose given; in toxicity tests it is the harm to the cells. Conditions beyond the fields shown may differ between rows.